Measured values from several laboratories, pooled; numbers as filed in NIAID ChemDB.

Shared fields: whole-cell or culture tests; agent: Aspergillus fumigatus; read-out: MIC90

A number after MIC or MFC names an inhibition level or a share of isolates. Conditions beyond the fields shown may differ between rows. a–b is a range or a potency band.

C[C@H]1[C@H](O)[C@@H](C)/C=C/C=C/C=C/C=C/C=C/C=C/C=C/[C@H](O[C@@H]2O[C@H](C)[C@@H](O)[C@H](N)[C@@H]2O)C[C@@H]2O[C@](O)(C[C@@H](O)C[C@@H](O)CC[C@H](O)[C@@H](O)C[C@@H](O)CC(=O)O[C@H]1C)C[C@H](O)[C@H]2C(=O)O ; strain: 25 isolates ; result: 1 µg/mL
CCC(C)n1ncn(-c2ccc(N3CCN(c4ccc(OC[C@H]5CO[C@](Cn6cncn6)(c6ccc(Cl)cc6Cl)O5)cc4)CC3)cc2)c1=O ; strain: 25 isolates ; result: 4 µg/mL
C[C@@H](c1ncncc1F)[C@](O)(Cn1cncn1)c1ccc(F)cc1F ; strain: 150 clinical isolates ; result: 0.25–0.5 µg/mL
CCN1CCC(O)(/C=C/c2ccc(Cl)cc2)C(C(=O)/C=C/c2ccc(Cl)cc2)C1 ; strain: 20 strains ; result: 11.68 µg/mL
CCC(C)CC(C)CCCCCCCCC(=O)N[C@H]1C[C@@H](O)[C@H](NCCN)NC(=O)[C@@H]2[C@@H](O)CCN2C(=O)[C@H]([C@H](O)CCN)NC(=O)[C@H]([C@H](O)[C@@H](O)c2ccc(O)cc2)NC(=O)[C@@H]2C[C@@H](O)CN2C(=O)[C@H]([C@@H](C)O)NC1=O ; strain: 62 isolates ; result: 0.5 µg/mL
C[C@@H](c1ncncc1F)[C@](O)(Cn1cncn1)c1ccc(F)cc1F ; strain: 25 isolates ; result: 0.5 µg/mL
C[C@H]1[C@H](O)[C@@H](C)/C=C/C=C/C=C/C=C/C=C/C=C/C=C/[C@H](O[C@@H]2O[C@H](C)[C@@H](O)[C@H](N)[C@@H]2O)C[C@@H]2O[C@](O)(C[C@@H](O)C[C@@H](O)CC[C@H](O)[C@@H](O)C[C@@H](O)CC(=O)O[C@H]1C)C[C@H](O)[C@H]2C(=O)O ; result: 0.39 µg/mL
CCC(C)n1ncn(-c2ccc(N3CCN(c4ccc(OC[C@H]5CO[C@](Cn6cncn6)(c6ccc(Cl)cc6Cl)O5)cc4)CC3)cc2)c1=O ; strain: 62 isolates ; result: >8 µg/mL
C[C@H]1[C@H](O)[C@@H](C)/C=C/C=C/C=C/C=C/C=C/C=C/C=C/[C@H](O[C@@H]2O[C@H](C)[C@@H](O)[C@H](N)[C@@H]2O)C[C@@H]2O[C@](O)(C[C@@H](O)C[C@@H](O)CC[C@H](O)[C@@H](O)C[C@@H](O)CC(=O)O[C@H]1C)C[C@H](O)[C@H]2C(=O)O ; strain: 94 isolates ; result: 2 µg/mL
CCC(C)n1ncn(-c2ccc(N3CCN(c4ccc(OC[C@H]5CO[C@](Cn6cncn6)(c6ccc(Cl)cc6Cl)O5)cc4)CC3)cc2)c1=O ; strain: 3 clinical isolates ; result: 1 µg/mL
CCCCCCCCOc1ccc(-c2ccc(C(=O)NC3CC(NCCN)CNC(=O)[C@@H]4[C@@H](O)[C@@H](C)CN4C(=O)[C@@H](CO)NC(=O)[C@H]([C@H](O)Cc4ccccc4)NC(=O)[C@@H]4C[C@@H](O)CN4C(=O)[C@H]([C@@H](C)O)NC3=O)cc2)cc1 ; strain: 25 isolates ; result: 0.5 µg/mL
COC(=O)[C@H]1[C@@H]2C[C@@H](O[C@@H]3O[C@H](C)[C@@H](O)[C@H](N)[C@@H]3O)/C=C/C=C/C=C/C=C/C=C/C=C/C=C/[C@H](C)[C@@H](O)[C@H](C)[C@H](C)OC(=O)C[C@H](O)C[C@H](O)[C@@H](O)CC[C@H](O)C[C@H](O)C[C@](O)(C[C@@H]1O)O2 ; strain: 35 isolates ; result: 2 µg/mL
CCC(C)n1ncn(-c2ccc(N3CCN(c4ccc(OC[C@H]5CO[C@](Cn6cncn6)(c6ccc(Cl)cc6Cl)O5)cc4)CC3)cc2)c1=O ; strain: 35 isolates ; result: 2 µg/mL
C[C@@H](c1ncncc1F)[C@](O)(Cn1cncn1)c1ccc(F)cc1F ; strain: 28 isolates ; result: 0.06 µg/mL
C[C@H]1[C@H](O)[C@@H](C)/C=C/C=C/C=C/C=C/C=C/C=C/C=C/[C@H](O[C@@H]2O[C@H](C)[C@@H](O)[C@H](N)[C@@H]2O)C[C@@H]2O[C@](O)(C[C@@H](O)C[C@@H](O)CC[C@H](O)[C@@H](O)C[C@@H](O)CC(=O)O[C@H]1C)C[C@H](O)[C@H]2C(=O)O ; strain: 25 isolates ; result: 4 µg/mL

Repeating the final 2 entries:

C[C@@H](c1ncncc1F)[C@](O)(Cn1cncn1)c1ccc(F)cc1F ; strain: 28 isolates ; result: 0.06 µg/mL
C[C@H]1[C@H](O)[C@@H](C)/C=C/C=C/C=C/C=C/C=C/C=C/C=C/[C@H](O[C@@H]2O[C@H](C)[C@@H](O)[C@H](N)[C@@H]2O)C[C@@H]2O[C@](O)(C[C@@H](O)C[C@@H](O)CC[C@H](O)[C@@H](O)C[C@@H](O)CC(=O)O[C@H]1C)C[C@H](O)[C@H]2C(=O)O ; strain: 25 isolates ; result: 4 µg/mL